Primary screen of a compound library

Mtb glucose medium: 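Growth of Mycobacterium tuberculosis over 3 days (7H9 medium with glucose and tyloxapol); the read-out is not stated. Compounds at 500 µM. Higher reads as more growth inhibition (inferred: compounds with an IC50 in retests scored well above the rest). About 18,000 compounds were tested under these conditions; 7.9% (about 1,400) showed 50% or more at least once.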
Mtb cholesterol medium: 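Phenotypic screen: M. tuberculosis growth, cholesterol and DPPC medium, 4 days; the read-out is not stated. Concentration: 500 µM. Higher reads as more growth inhibition (inferred: compounds with an IC50 in retests scored well above the rest). Size under these conditions: about 18,000 compounds, about 900 of them at 50% or above in at least one test.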

The filed quantity is “Percent Effect” (%). The record does not define 0% and 100%; most values in the screen are far below 50% and negative numbers occur (in some assays of this library far below -100). This is part of a subset picked to be rich in strong results. A dash means the value is not listed here; it may have been measured.

| Compound | Mtb glucose medium | Mtb cholesterol medium |
|---|---|---|
| `CNC1CCN(C)C1=O` (centres unmarked) | - | -14.85 |
| `CCN(CC)C(=O)c1cccc(C(=O)N(CC)CC)c1` | 10.09 | - |
| `COc1ccc(CCN)c(Cl)c1` | -8.05 | -11.76 |
| `COc1ccc(S(=O)(=O)N2CCC(N)CC2)cc1OC` | 23.36 | - |
| `O=C1OCCN1CCn1nnc(-c2ccc(F)cc2)n1` | 39.9 | - |
| `Cc1nnnn1CCC(=O)NCc1csc(C(C)C)n1` | 18.2 | - |
| `CNCC(O)CN1CCc2ccccc2CC1` (centres unmarked) | 87.09 | 85.92 |
| `COc1cc(S(=O)(=O)NCc2ccnn2C)ccc1F` | - | 7.06 |
| `NCC1CCN1Cc1ccccc1` (centres unmarked) | - | 5.425 |
| `CC1CNCCN1c1cccc2cnccc12` (centres unmarked) | 44.88 | - |
| `Cc1occc1SCC(=O)NC1CCOCC1` | -4.667 | - |
| `Cc1n[nH]cc1CNCCNc1ncccn1` | -7.285 | - |
| `COCCN1C(=O)C[C@@H](CN)[C@@H]1c1cnn(C(C)C)c1` | -1.586 | - |
| `Cc1cccc2[nH]c(CO)cc12` | - | -3.611 |
| `C=C(C)Cn1c(S(C)(=O)=O)nc2ccccc21` | 52.77 | - |
| `OC1CCN(C2CCNCC2)C1` (centres unmarked) | - | -0.8637 |
| `CCC(C)(NC(=O)Nc1ncnn1C)c1nccs1` (centres unmarked) | -14.32 | - |
| `CC(C)N1CCCC(N(C)CC(C)(CO)CO)C1=O` (centres unmarked) | -6.404 | - |
| `C[C@H](N)c1ncccc1F` | 1.847 | - |
| `CCN(Cc1nc(-c2ccc(=O)[nH]c2)no1)C1CC1` | 15.09 | - |
| `CC(C)CC1NCCNC1=O` (centres unmarked) | 2.471 | - |
| `Cc1nn(CCO)c(C)c1CNCC1(O)CCCCC1` | - | -7.002 |
| `COc1c(C)cc(Br)cc1C(=O)Nc1nnn(C)n1` | 69.74 | 58.94 |
| `Cc1cc(F)ccc1C1NCCNC1=O` (centres unmarked) | - | -5.006 |
| `CN1CCCCC1CC(=O)NCCc1ccc(O)cc1` (centres unmarked) | - | -1.286 |
| `OCC1CN(c2ncc(Cl)cc2F)CCO1` (centres unmarked) | 62.39 | 68.72 |
| `COCc1noc(C2CCN(CC(F)(F)F)CC2)n1` | - | 41.09 |
| `COCC1(C(=O)NCCNc2cccnc2)CCC1` | 10.23 | - |
| `O=C(CN1CC(O)(C2CC2)C1)Nc1ccccc1F` | 26.85 | - |
| `O=C(c1cscn1)N1CCN(c2ccc(Cl)cn2)CC1` | 81.54 | 85.19 |
| `CC(C(=O)NCc1ccc2c(c1)OCCO2)S(C)(=O)=O` (centres unmarked) | - | -0.773 |
| `COC(=O)COc1ccc2c(c1)OCO2` | 43.17 | 66.68 |
| `NCCN1C(=O)c2ccccc2S1(=O)=O` | -3.057 | -7.09 |
| `COc1cc(CC(=O)NCCNC(C)=O)ccc1C` | 15.29 | - |
| `O=C(NCc1cccc(Cl)c1)c1cnns1` | 81.09 | 70.12 |
| `CCNS(=O)(=O)C1CCN(Cc2cn(C)nc2CC)C1` (centres unmarked) | 12.01 | - |
| `C[C@H]1CN(C(=O)C(C)(C)C)CCN1S(C)(=O)=O` | -6.786 | - |
| `CCC1CN(C(=O)Cn2cc(C)c(=O)[nH]c2=O)CCN1` (centres unmarked) | 13.85 | - |
| `N#Cc1cccc(C(=O)NCC(O)C2CCOCC2)c1` (centres unmarked) | -0.8343 | - |
| `C[C@H](N)CNCc1cc(O)c2cc(F)ccc2n1` | 9.735 | - |
| `Nc1cn(-c2ccccc2C(F)(F)F)nn1` | - | 18.16 |
| `COCCN(Cc1ccco1)C(=O)c1cnc(C)cn1` | 13.27 | - |
| `COC(=O)c1sc(N)nc1C` | -7.442 | - |
| `O=C(CSc1ncn[nH]1)Nc1ncc(Br)s1` | 39.16 | - |
| `CC(C)n1ccnc1CN1CCCC2(C1)OCCO2` | 10.07 | - |
| `OC(CSc1ncccc1Br)CN1CCOCC1` (centres unmarked) | 35.65 | 23.8 |
| `CC(C)Cn1nnnc1SC(C)C#N` (centres unmarked) | 5.388 | - |
| `O=C(NCc1cccc2c1OCO2)c1cccnc1O` | 9.652 | - |
| `CCN(Cc1ccoc1)C(=O)Nc1cccnc1OC` | 37.52 | - |
| `COCCN(C(=O)c1ccn(C)c(=O)c1)C1CCCC1` | 7.11 | - |
| `CC(=O)NCCNC(=O)CSCc1cccc(Cl)c1` | - | 11.9 |
| `CCOCCC(=O)NCc1c(C)ncc2c1CCNC2` | -26.52 | - |
| `CN(Cc1cc(Br)cs1)C(=O)CC1(N)CCC1` | 53.78 | - |
| `O=C(Nc1cccc(F)c1)C1CCCN1` (centres unmarked) | 23.5 | 9.919 |
| `c1cnc2ncnc(NC3CCOC3)c2c1` (centres unmarked) | -0.5078 | - |
| `NC1CCN(c2cccc(Cl)c2)C1` (centres unmarked) | -9.639 | -7.494 |
| `N#CCSCC(=O)NCc1ccc(Cl)s1` | - | 5.8 |
| `CC(C)[C@H](N)C(=O)N1CCN(C2CC2)C(=O)C1` | 2.876 | - |
| `COc1ccc(Cn2[nH]ccc2=N)cc1` | 20.1 | - |
| `NCC(=O)Nc1ccc(Cl)c(F)c1` | 73.15 | 68.45 |
| `CS(=O)(=O)c1cccc(Oc2nccnc2C#N)c1` | - | 13.8 |
| `OCc1csc2nccn12` | 7.888 | - |
| `O=C(CCCc1cn[nH]c1)NCC[C@@H]1CCCN1` | - | -3.956 |
| `CC(C)n1cncc1CN1CCN(CCO)CC1` | -17.94 | - |
| `OCC(O)CSCc1ncc(-c2cccc(Cl)c2)o1` (centres unmarked) | 60.88 | 49.1 |
| `C1CC(c2nnc(CN3CCCC3)o2)C1` | 40.43 | - |
| `O=C(NCCN1CCNCC1)C1CCC1` | -5.502 | - |

Some entries from above, unchanged:

Compound,Mtb glucose medium,Mtb cholesterol medium
CNCC(O)CN1CCc2ccccc2CC1 (centres unmarked),87.09,85.92
O=C(CN1CC(O)(C2CC2)C1)Nc1ccccc1F,26.85,-
Cc1nnnn1CCC(=O)NCc1csc(C(C)C)n1,18.2,-
COc1ccc(S(=O)(=O)N2CCC(N)CC2)cc1OC,23.36,-

The values are deposited in ChEMBL (CHEMBL3988442, “University of Dundee, Small-Polar-MMV Screening Library” (2021)).